Residues, ends and D or L forms follow the SMILES beside them.
Legend:
[1] = Circular dichroism, helical structure in zwitterionic lipid vesicles; format: physicochemical; details: CD, from [θ]222; zwitterionic PC/Chol (8:1, w/w) vesicles ~500 μM; peptide ~25 μM
[2] = Circular dichroism, helical structure in negatively charged lipid vesicles; format: physicochemical; details: CD, from [θ]222; negatively charged PC/PG (3:1 w/w) vesicles ~500 μM; peptide ~25 μM

| Compound | % α-Helix in PC/Chol [1] [%] | % α-Helix in PC/PG [2] [%] |
| --- | --- | --- |
| H-FFHHIFRGIVHVGKKIHRLVKG-NH2 [T15,21K Piscidin-1] | 27.33 | 59.59 |
| H-FFHHIFRGIVHVGKTIHRLVTG-NH2 [Piscidin-1] | 50.29 | 61.02 |
| CC[C@H](C)[C@H](NC(=O)CNC(=O)[C@H](CCCNC(=N)N)NC(=O)[C@H](Cc1ccccc1)NC(=O)[C@@H](NC(=O)[C@H](Cc1c[nH]cn1)NC(=O)[C@H](Cc1c[nH]cn1)NC(=O)[C@H](Cc1ccccc1)NC(=O)[C@@H](N)Cc1ccccc1)[C@@H](C)CC)C(=O)N[C@H](C(=O)N[C@@H](Cc1c[nH]cn1)C(=O)N[C@H](C(=O)NCC(=O)N[C@@H](CCCCN)C(=O)N[C@H](CCCCN)C(=O)N[C@H](C(=O)N[C@@H](Cc1c[nH]cn1)C(=O)N[C@@H](CCCNC(=N)N)C(=O)N[C@@H](CC(C)C)C(=O)N[C@H](C(=O)N[C@H](CCCCN)C(=O)NCC(N)=O)C(C)C)[C@@H](C)CC)C(C)C)C(C)C [T15,21dK Piscidin-1] (HELM PEPTIDE1{F.F.H.H.I.F.R.G.I.V.H.V.G.K.[dK].I.H.R.L.V.[dK].G.[am]}$$$$V2.0) | 9.51 | 42.99 |
| H-FFHHIFRGIVHVGKKIHRLVTG-NH2 [T15K Piscidin-1] | 46.59 | 59.89 |
| CC[C@H](C)[C@H](NC(=O)CNC(=O)[C@H](CCCNC(=N)N)NC(=O)[C@H](Cc1ccccc1)NC(=O)[C@@H](NC(=O)[C@H](Cc1c[nH]cn1)NC(=O)[C@H](Cc1c[nH]cn1)NC(=O)[C@H](Cc1ccccc1)NC(=O)[C@@H](N)Cc1ccccc1)[C@@H](C)CC)C(=O)N[C@H](C(=O)N[C@@H](Cc1c[nH]cn1)C(=O)N[C@H](C(=O)NCC(=O)N[C@@H](CCCCN)C(=O)N[C@H](CCCCN)C(=O)N[C@H](C(=O)N[C@@H](Cc1c[nH]cn1)C(=O)N[C@@H](CCCNC(=N)N)C(=O)N[C@@H](CC(C)C)C(=O)N[C@H](C(=O)N[C@H](C(=O)NCC(N)=O)[C@@H](C)O)C(C)C)[C@@H](C)CC)C(C)C)C(C)C [T15dK Piscidin-1] (HELM PEPTIDE1{F.F.H.H.I.F.R.G.I.V.H.V.G.K.[dK].I.H.R.L.V.T.G.[am]}$$$$V2.0) | 28.03 | 45.40 |

From paper PMC5209718, “Piscidin-1-analogs with double L- and D-lysine residues exhibited different conformations in lipopolysaccharide but comparable anti-endotoxin activities” (Scientific Reports, 2017)
